# Reference: PubChem BioAssay AID1745857 (National Center for Advancing Translational Sciences (NCATS), 2022)
# This is a selection; strong and weak results do not stand in their true shares. Records with an inconclusive call do not appear. Activity calls are given as the source filed them. Calls follow the shape of the full dose curve.
# Assay: Primary qHTS Assay for Foot and Mouth Disease Virus Antivirals against NCGC Sytravon and CBC Compound Libraries: Renilla Luciferase Signal; also: nearly all actives have a fitted effect of over 55% in size
# Settings: FMDV replicon cells; at 57.5 µM (top of the series) unless noted
# % is scaled to controls: 0 for no effect and ±100 for the full control effect.
row,SMILES,"activity change, negative = inhibition"
1,OCCSCCO,inactive: -2.29%
2,BrCCNCCc1ccncc1,inactive: 6.12%
3,CCNC(C)Cc1ccc2c(c1)OCO2 (configuration not stated),inactive: -2.91% [at 129 µM]
4,CCOP(=O)(CC)Oc1ccc([N+](=O)[O-])cc1 (configuration not stated),inactive: -10.5%
5,Cc1cccc([N+](=O)[O-])c1[N+](=O)[O-],inactive: -5.03% [at 114 µM]
6,CCn1nc(C(=O)NCC2(N3CCCCC3)CCCCC2)c2ccccc2c1=O,inactive: 7.01%
7,CN(C(=O)Cc1ccccc1)[C@H]1CC[C@@]2(CCCO2)C[C@@H]1N1CCCC1,inactive: -11.9%
8,ClCCNC1C2CC3CC(C2)CC1C3 (configuration not stated),inactive: -1.78%
9,O=[N+]([O-])c1cccc([N+](=O)[O-])c1,inactive: -11.6% [at 114 µM]
10,CN(C(=O)Cc1ccc(Cl)c(Cl)c1)[C@H]1CC[C@@]2(CCCO2)C[C@@H]1N1CCCC1,inactive: -21.2%
11,Cc1ccc(C(=O)NC(Sc2ccccc2)C(Cl)(Cl)Cl)cc1 (configuration not stated),inactive: 6.07%
12,NC(=O)Nc1ccc([As](=O)(O)O)cc1,inactive: 29.9%
13,Fc1ccc(NC2=NCC(CI)S2)c(F)c1 (configuration not stated),inactive: 2.38%
14,BrCC1CN=C(Nc2ccccc2)S1 (configuration not stated),inactive: 86.8%
15,Cc1ccc(C(=O)NC(Sc2ccc(Cl)cc2)C(Cl)(Cl)Cl)cc1 (configuration not stated),inactive: -17.2%
16,NNc1ccc([N+](=O)[O-])cc1[N+](=O)[O-],inactive: -3.59%
17,Fc1ccc(CNC2=NCC(CBr)S2)cc1 (configuration not stated),inactive: -13.3%
18,O=C(NC(Sc1ccccc1)C(Cl)(Cl)Cl)c1ccc(Cl)cc1 (configuration not stated),inactive: -2.3%
19,O=C(NC(Sc1ccc(Cl)cc1)C(Cl)(Cl)Cl)c1ccccc1 (configuration not stated),inactive: -21.9%
20,O=C(/C=C/c1ccccc1)NC(Sc1ccc(Cl)cc1)C(Cl)(Cl)Cl (configuration not stated),inactive: 10.3%
21,Cc1cccc(C(=O)NC(Sc2ccccc2)C(Cl)(Cl)Cl)c1 (configuration not stated),inactive: 13.1%
22,Clc1cccc(NC2=NCC(CBr)S2)c1 (configuration not stated),inactive: 2.98%
